A mixed list of measured activities; the numbers were collected in NIAID ChemDB.

Common to all: toxicity to cultured cells; cells: MT-2; read-out: CC50

Conditions beyond the fields shown may differ between rows.

SMILES | method | value
Nc1nc(N)c2ncn([C@H]3CO[C@@H](CO)O3)c2n1 |  | >1000 µM
CN1CCN(C2=Nc3cc(O)ccc3Nc3ccccc32)CC1 |  | >100 µg/mL
Nc1nc(NC2CC2)c2ncn(CCOCP(=O)(O)O)c2n1 | propidium iodide | 4.2 µM
O=c1ccc2ccccc2[se]1 | MTT | >100 µM
C[C@H](Cn1cnc2c(N)ncnc21)OCP(=O)(O)O |  | >500 µM
COc1c(O)ccc(C(=O)N[C@@H](CSc2ccccc2)[C@H](O)CN2C[C@H]3CCCC[C@H]3C[C@H]2C(=O)NC(C)(C)C)c1C | MTT | 13.3 µM
Cc1ccnc2c1NC(=O)c1cccnc1N2C1CC1 |  | >100 µM
CCCCCCCCCCCCCCCCCCOCCCOP(=O)(O)C(=O)O | MTT | 162 µM
O=C1N(c2ccccc2)c2ccccc2C1(Cc1ccncc1)Cc1ccc([N+](=O)[O-])cc1 |  | 39 µM
COC(=O)N[C@H](C(=O)N[C@@H](Cc1ccccc1)[C@@H](O)CN(Cc1ccc(-c2ccccn2)cc1)NC(=O)[C@@H](NC(=O)OC)C(C)(C)C)C(C)(C)C | MTT | 31.5 µg/mL
C=C(COCCc1ccccc1)[C@@H]1CC[C@]2(C(=O)NC(CC(C)C)C(=O)O)CC[C@]3(C)[C@H](CC[C@@H]4[C@@]5(C)CC[C@H](O)C(C)(C)[C@@H]5CC[C@]43C)[C@@H]12.CF | XTT | 24.4 µM
CCCCCCCCCCCCCCCCCCOC[C@@H](COP(=O)(O)C(=O)O)OCCCCCCCC | MTT | 1102 µM
Nc1ccn([C@H]2CC[C@@H](CO)O2)c(=O)n1 |  | >32 µM
CCCCCCCCCCCCCCCCCCOC[C@@H](COP(=O)(O)C(=O)O)OCCCCCCCCCCCC | MTT | 834 µM
CC(C)CN(C[C@@H](O)[C@H](Cc1ccccc1)NC(=O)O[C@H]1CCOC1)S(=O)(=O)c1ccc(N)cc1 |  | >100 µM
[Li+] |  | >200 µg/mL
O=c1cc(-c2ccc(O)cc2)oc2cc(O[C@@H]3O[C@H](CO)[C@@H](O)[C@H](O)[C@H]3OS(=O)(=O)O)cc(O)c12 |  | >800 µM
Nc1nc2c(ncn2[C@H]2CO[C@@H](CO)O2)c(=O)[nH]1 |  | >500 µM
O=C1CCc2ccccc2[Se]1 | MTT | >100 µM
CCCCCCCCCCCCCCCCCCOC[C@H](COP(=O)(O)C(=O)O)OCCCC | MTT | 591 µM
Nc1nc2c(ncn2[C@H]2C=C[C@@H](CO)C2)c(=O)[nH]1 |  | >100 µM
CN1CC=C(CC2(CC3=CCN(C)CC3)C(=O)N(Cc3ccccc3)c3ccccc32)CC1 |  | 109 µM
Cc1nc2n(c(=O)c1CCN1CCC(c3noc4cc(F)ccc34)CC1)CCCC2 |  | 15 µg/mL
CC(C)CN(C[C@@H](O)[C@H](Cc1ccccc1)NC(=O)O[C@H]1CCOC1)S(=O)(=O)c1ccc(N)cc1 | MTT | 60.5 µM
CCCc1cc(=O)oc2c3c(c4c(c12)OC(C)(C)C=C4)O[C@@H](C)[C@H](C)[C@@H]3O |  | 10–20 µM
CN1CCN(C2=c3cc(O)ccc3=Nc3ccc(Cl)cc3N2O)CC1 |  | >100 µg/mL
C=C(COCCc1ccccc1)[C@@H]1CC[C@]2(C(=O)NC(CC(C)C)C(=O)O)CC[C@]3(C)[C@H](CC[C@@H]4[C@@]5(C)CC[C@H](O)C(C)(C)[C@@H]5CC[C@]43C)[C@@H]12.COC | XTT | 16.7 µM
O=C1N(c2ccccc2)c2ccccc2C1(CCc1cccnc1)CCc1cccnc1 |  | 99 µM
CCCCCCCCCCCCCCCCCCOCCOP(=O)(O)COCCn1cnc2c(N)ncnc21 | propidium iodide | 0.018 µM
Nc1nc2c(ncn2[C@H]2C=C[C@@H](CO)O2)c(=O)[nH]1 |  | 47 µM
Nc1nc(NC2CC2)c2ncn([C@H]3CC[C@@H](CO)O3)c2n1 |  | >20 µM
CN1CC=C(Cc2cn(-c3ccccc3)c3ccccc23)CC1 |  | 18 µM
CCc1c([Se]c2ccccn2)n(COCc2ccccc2)c(=O)[nH]c1=O |  | 24 ± 0.1 µM
Cc1cn([C@H]2C[C@H](N=[N+]=[N-])[C@@H](CO)O2)c(=O)[nH]c1=O |  | 159 µg/mL
Nc1nc(N)c2ncn([C@H]3C=C[C@@H](CO)O3)c2n1 |  | >20 µM
O=C(/C=C/c1ccc(O)cc1)[Se]c1ccccc1 | MTT | 33.7 µM
Nc1ccn(CCOCP(=O)(O)O)c(=O)n1 | propidium iodide | >100 µM
Cc1c(O)cccc1C(=O)N[C@@H](CSc1ccccc1)[C@H](O)CN1C[C@H]2CCCC[C@H]2C[C@H]1C(=O)NC(C)(C)CO |  | 92.6 µM
O=C1N(c2ccccc2)c2ccccc2C1(Cc1ccccc1)Cc1ccncc1 |  | 56 µM
O=c1[nH]cnc2c1ncn2[C@H]1CC[C@@H](CO)O1 |  | >500 µM
O=C(/C=C/C=C/c1ccccc1)[Se]c1ccccc1 | MTT | 29.5 µM
COC(=O)C(C)NP(=O)(OC[C@@H]1C=C[C@H](C2C=Nc3c2nc(N)[nH]c3=O)O1)Oc1ccccc1 | MTT | >100 µM
Nc1nc(NC2CC2)c2ncn([C@H]3C=C[C@@H](CO)O3)c2n1 |  | >100 µM
O=C(/C=C/c1ccccc1)[Se]c1ccccc1 | MTT | 33.2 µM
Nc1nc(N)c2ncn([C@H]3CC[C@@H](CO)O3)c2n1 |  | >20 µM
CC(C)CN(C[C@@H](O)[C@H](Cc1ccccc1)NC(=O)O[C@H]1CCOC1)S(=O)(=O)c1ccc(N)cc1 | MTT | 45.5 µM
C[C@H](Cn1cnc2c(N)ncnc21)OCP(=O)(O)O |  | 1250 µM
CCCCCCCC/C=C\CCCCCCCCOCCOP(=O)(O)COCCn1cnc2c(NC3CC3)nc(N)nc21 | propidium iodide | 0.004 µM
COC(=O)C(=O)OC1(C(=O)O)C[C@@H](OC(=O)/C=C/c2ccc(O)c(O)c2)C(O)[C@H](OC(=O)/C=C/c2ccc(O)c(O)c2)C1 |  | >350 µg/mL
CCc1c([Se]c2ccccc2)n(COCc2ccccc2)c(=O)[nH]c1=O |  | 5 ± 0.5 µM
O=C(O)/C=C/c1ccc(O)c(O)c1 |  | >250 µg/mL
Cc1c(O)cccc1C(=O)N[C@@H](CSc1ccccc1)[C@H](O)CN1C[C@H]2CCCC[C@H]2C[C@H]1C(=O)NC(C)(C)C |  | >10 µM
CCCCCCCCCCCCCCCCCCOCC(COP(=O)(O)C(=O)O)(OC)OC | MTT | 174 µM
O=C(O)c1cc(-c2ccc(/C=C3\SC(=S)N(c4cccc(F)c4)C3=O)o2)ccc1Cl | XTT | 84.5 µM
O=C(/C=C/c1ccc(O)c(O)c1)O[C@@H]1CC(O)(C(=O)O)C[C@@H](OC(=O)/C=C/c2ccc(O)c(O)c2)C1O |  | >300 µM
Oc1ccc2c(c1)N=C(N1CCNCC1)c1ccccc1N2 |  | >100 µg/mL
CC(C)(C)NC(=O)[C@@H]1C[C@@H]2CCCC[C@@H]2N1C(=O)[C@@H](O)[C@H](Cc1ccccc1)NC(=O)[C@H](CC(N)=O)NC(=O)COc1cccc2ccccc12 |  | >10 µM
CN1CC=C(CC2(CC3=CCN(C)CC3)C(=O)N(c3ccccc3)c3cc4ccccc4cc32)CC1 |  | 89 µM
CCCc1cc(=O)oc2c3c(c4c(c12)OC(C)(C)C=C4)O[C@H](C)[C@@H](C)[C@@H]3O |  | 10–20 µM
Nc1ncnc2c1ncn2CCOCP(=O)(O)O | propidium iodide | 157 µM
COc1cc2c(cc1OC)[C@H](c1cc(OC)c(OC)c(OC)c1)[C@@H](C)[C@@H](C)C2 |  | >10 µM
Nc1nc(=O)n(C[C@@H](CO)OCP(=O)(O)O)cc1F | propidium iodide | >100 µM
CCCc1c([Se]c2ccccc2)n(COCCO)c(=O)[nH]c1=O | MTT | >61.5 µM
CCCCCCCCCCCCCCCCOCCCOP(=O)(O)CO[C@H](CO)Cn1cc(F)c(N)nc1=O | propidium iodide | 41 µM
Nc1nc(NC2CC2)c2ncn([C@H]3C=C[C@@H](CO)O3)c2n1 |  | 87 µM

A second listing of 4 rows from above:

SMILES	method	value
O=C1CCc2ccccc2[Se]1	MTT	>100 µM
C=C(COCCc1ccccc1)[C@@H]1CC[C@]2(C(=O)NC(CC(C)C)C(=O)O)CC[C@]3(C)[C@H](CC[C@@H]4[C@@]5(C)CC[C@H](O)C(C)(C)[C@@H]5CC[C@]43C)[C@@H]12.CF	XTT	24.4 µM
[Li+]		>200 µg/mL
Cc1cn([C@H]2C[C@H](N=[N+]=[N-])[C@@H](CO)O2)c(=O)[nH]c1=O		159 µg/mL

Two numbers with a dash give a range or band. CCn: concentration that lowers growth or viability of the cells by n%. An empty or dashed field is not shown.